Measurements: ChEMBL document CHEMBL1649456 (Antimicrob Agents Chemother, 2009)

How the values were obtained:
[1] = tested on: Coxiella burnetii; experiment: Antimicrobial activity against compound-intermediate susceptible Coxiella burnetii Nine-Mile obtained from patient with acute Q fever infected in african green monkey Vero cells after 24 hrs by shell vial assay; conditions: strain Nine-Mile
[2] = tested on: Coxiella burnetii; experiment: Antimicrobial activity against compound-intermediate susceptible Coxiella burnetii isolate CP7 obtained from patient with acute Q fever infected in african green monkey Vero cells after 24 hrs by shell vial assay; conditions: strain isolate CP7, Vero
[3] = tested on: Coxiella burnetii; experiment: Antimicrobial activity against compound-intermediate susceptible Coxiella burnetii isolate CP6 obtained from patient with acute Q fever infected in african green monkey Vero cells after 24 hrs by shell vial assay; conditions: strain isolate CP6, Vero
[4] = tested on: Coxiella burnetii; experiment: Antimicrobial activity against compound-intermediate susceptible Coxiella burnetii isolate CP3 obtained from patient with acute Q fever infected in african green monkey Vero cells after 24 hrs by shell vial assay; conditions: strain isolate CP3, Vero
[5] = tested on: Coxiella burnetii; experiment: Antimicrobial activity against compound-intermediate susceptible Coxiella burnetii isolate CP5 obtained from patient with acute Q fever infected in african green monkey Vero cells after 24 hrs by shell vial assay; conditions: strain isolate CP5, Vero
[6] = tested on: Coxiella burnetii; experiment: Antimicrobial activity against compound-intermediate susceptible Coxiella burnetii isolate CP8 obtained from patient with acute Q fever infected in african green monkey Vero cells after 24 hrs by shell vial assay; conditions: strain isolate CP8, Vero
[7] = tested on: Coxiella burnetii; experiment: Antimicrobial activity against compound-intermediate susceptible Coxiella burnetii isolate CP2 obtained from patient with acute Q fever infected in african green monkey Vero cells after 24 hrs by shell vial assay; conditions: strain isolate CP2, Vero
[8] = tested on: Coxiella burnetii; experiment: Antimicrobial activity against compound-intermediate susceptible Coxiella burnetii isolate CP4 obtained from patient with acute Q fever infected in african green monkey Vero cells after 24 hrs by shell vial assay; assay type: functional; conditions: strain isolate CP4, Vero

Molecule `CC[C@H]1OC(=O)[C@H](C)[C@@H](O[C@H]2C[C@@](C)(OC)[C@@H](O)[C@H](C)O2)[C@H](C)[C@@H](O[C@@H]2O[C@H](C)C[C@H](N(C)C)[C@H]2O)[C@](C)(OC)C[C@@H](C)C(=O)[C@H](C)[C@@H](O)[C@]1(C)O` [CLARITHROMYCIN] has an MIC [1] of 1 µg/mL (≈ 1.34 µM), an MIC [2] of 1 µg/mL (≈ 1.34 µM) and an MIC [3] of 1 µg/mL (≈ 1.34 µM). It also gave an MIC [4] of 1 µg/mL (≈ 1.34 µM), an MIC [5] of 1 µg/mL (≈ 1.34 µM) and an MIC [6] of 1 µg/mL (≈ 1.34 µM). For the same molecule, the MIC [7] was 1 µg/mL (≈ 1.34 µM) and the MIC [8] was 1 µg/mL (≈ 1.34 µM).

Work on `C[C@H]1c2cccc(O)c2C(=O)C2=C(O)[C@]3(O)C(=O)C(C(N)=O)=C(O)[C@@H](N(C)C)[C@@H]3[C@@H](O)[C@@H]21.O` [DOXYCYCLINE] yielded an MIC [1] of 0.5 µg/mL, an MIC [2] of 0.5 µg/mL and an MIC [3] of 0.5 µg/mL. For the same molecule, the MIC [4] was 0.5 µg/mL, the MIC [5] was 0.5 µg/mL and the MIC [6] was 0.5 µg/mL. It also gave an MIC [7] of 0.5 µg/mL.

`N[C@@H]1[C@H]2CN(c3nc4c(cc3F)c(=O)c(C(=O)O)cn4-c3ccc(F)cc3F)C[C@@H]12` [TROVAFLOXACIN] was tested, and the MIC [1] was 0.5 µg/mL (≈ 1.2 µM), the MIC [2] was 0.5 µg/mL (≈ 1.2 µM) and the MIC [3] was 0.5 µg/mL (≈ 1.2 µM). For the same molecule, the MIC [4] was 0.5 µg/mL (≈ 1.2 µM), the MIC [5] was 0.5 µg/mL (≈ 1.2 µM) and the MIC [6] was 0.5 µg/mL (≈ 1.2 µM). It also gave an MIC [7] of 0.5 µg/mL (≈ 1.2 µM) and an MIC [8] of 0.5 µg/mL (≈ 1.2 µM).

Converted amounts (≈) assume the structure as drawn.
